According to paper PMC11904993, “Humanized Candida and NanoBiT Assays Expedite Discovery of Bdf1 Bromodomain Inhibitors With Antifungal Potential” (Advanced Science, 2025):
Like-named read-outs stand apart in the source and are kept apart here.

By UniProt entry, the sequences of proteins in these tests, tags left out. Residues count along the entry.
UniProt Q6FWV7, 100-228 limits assumed: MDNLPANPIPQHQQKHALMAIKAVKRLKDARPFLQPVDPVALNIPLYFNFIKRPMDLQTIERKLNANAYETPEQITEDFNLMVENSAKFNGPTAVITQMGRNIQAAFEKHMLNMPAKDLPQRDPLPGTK

Experiments:
CgBdf1 BD1 [1] = settings: for Normalized (0 to 100%), WT, Average / Normalized (0 to 100%), YF mutant, Average: normalized peptide array signal; for Raw data, WT, Left / Raw data, YF mutant, Left: left replicate; for Raw data, WT, Rigt / Raw data, YF mutant, Right: right replicate
CgBdf1 BD2 = settings: for Normalized (0 to 100%), WT, Average / Normalized (0 to 100%), YF mutant, Average: normalized peptide array signal; for Raw data, WT, Left / Raw data, YF mutant, Left: left replicate; for Raw data, WT, Rigt / Raw data, YF mutant, Right: right replicate
CgBdf1 BD1 [2] = target: CgBdf1 BD1 (Candida glabrata, UniProt Q6FWV7); assay: HTRF assay, inhibition of H4ac4 peptide binding; set-up: species or system C. glabrata; settings: read-out: IC50 CgBdf1 BD1; Table S3; estimate, preliminary single-replicate HTRF assay
[3] = CgBdf1 BD1 WT, peptide array signal
[4] = CgBdf1 BD1 YF mutant, peptide array signal
[5] = CgBdf1 BD2 WT, peptide array signal
[6] = CgBdf1 BD2 YF mutant, peptide array signal

SMILES	Normalized (0 to 100%), WT, Average (CgBdf1 BD1 [1]; CgBdf1 BD1 WT)	Raw data, WT, Left (CgBdf1 BD1 [1]; [3])	Raw data, WT, Rigt (CgBdf1 BD1 [1]; [3])	Normalized (0 to 100%), YF mutant, Average (CgBdf1 BD1 [1]; CgBdf1 BD1 YF mutant)	Raw data, YF mutant, Left (CgBdf1 BD1 [1]; [4])	Raw data, YF mutant, Right (CgBdf1 BD1 [1]; [4])	Normalized (0 to 100%), WT, Average (CgBdf1 BD2; CgBdf1 BD2 WT)	Raw data, WT, Left (CgBdf1 BD2; [5])	Raw data, WT, Rigt (CgBdf1 BD2; [5])	Normalized (0 to 100%), YF mutant, Average (CgBdf1 BD2; CgBdf1 BD2 YF mutant)	Raw data, YF mutant, Left (CgBdf1 BD2; [6])	Raw data, YF mutant, Right (CgBdf1 BD2; [6])	IC50 (CgBdf1 BD1 [2])	also measured
CCOc1cc(-c2ccccc2)nc2ccc(NS(=O)(=O)c3ccc(NC(C)=O)cc3)cc12	1.45%	0.007876	0.02111	0.247%	0.002159	0.002776	0.593%	0.004055	0.007798	0.567%	0.007669	0.003681	6.1 µM	–
CC(=O)c1cccc(NC(=O)Cn2cccc2-c2nc(-c3ccccc3)no2)c1	1.87%	0.01418	0.02331	0.386%	0.004627	0.003085	0.92%	0.01154	0.006862	1%	0.01534	0.003988	> 20 µM	–
CCC(=O)Nc1ccc(CCc2nc3ccc(C(=O)NCc4ccc5c(c4)OCO5)cc3[nH]2)cc1	2.5%	0.02174	0.02836	0.432%	0.005552	0.003085	0.811%	0.00811	0.00811	1.9%	0.02975	0.008282	> 20 µM	–
CC(=O)Nc1ccc(Cc2nc(-c3cccc(-c4ccn[nH]4)c3)no2)cc1	–	–	–	–	–	–	–	–	–	–	–	–	> 20 µM	Raw data, WT (CgBdf1 BD1 [1]; peptide array signal, CgBdf1 BD1 WT, first replicate column): 0.05167; Normalized (0 to 100%), WT (CgBdf1 BD1 [1]; peptide array signal, CgBdf1 BD1 WT, mean of the two raw values): 10%; Raw data, WT (CgBdf1 BD1 [1]; peptide array signal, CgBdf1 BD1 WT, second replicate column): 0.1389; Raw data, YF mutant (CgBdf1 BD1 [1]; peptide array signal, CgBdf1 BD1 YF mutant, first replicate column): 0.003085; Normalized (0 to 100%), YF mutant (CgBdf1 BD1 [1]; peptide array signal, CgBdf1 BD1 YF mutant, mean of the two raw values): 0.308%; Raw data, YF mutant (CgBdf1 BD1 [1]; peptide array signal, CgBdf1 BD1 YF mutant, second replicate column): 0.003085; Raw data, WT (CgBdf1 BD2; peptide array signal, CgBdf1 BD2 WT, first replicate column): 0.007174; Normalized (0 to 100%), WT (CgBdf1 BD2; peptide array signal, CgBdf1 BD2 WT, mean of the two raw values): 1.59%; Raw data, WT (CgBdf1 BD2; peptide array signal, CgBdf1 BD2 WT, second replicate column): 0.02464; Raw data, YF mutant (CgBdf1 BD2; peptide array signal, CgBdf1 BD2 YF mutant, first replicate column): 0.007975; Normalized (0 to 100%), YF mutant (CgBdf1 BD2; peptide array signal, CgBdf1 BD2 YF mutant, mean of the two raw values): 0.429%; Raw data, YF mutant (CgBdf1 BD2; peptide array signal, CgBdf1 BD2 YF mutant, second replicate column): 0.0006135
Cc1nnc(-c2ccc3ccn(CC(=O)Nc4cccc(Cl)c4)c3c2)o1	1.75%	0.004726	0.03025	0.308%	0.003085	0.003085	0.686%	0.007798	0.005926	0.706%	0.01012	0.003988	> 20 µM	–
CCc1nnc(-c2ccc3ccn(CC(=O)Nc4cccc(OC)c4)c3c2)o1	2.65%	0.01166	0.04127	0.308%	0.003085	0.003085	0.499%	0.004991	0.004991	0.613%	0.01012	0.002147	> 20 µM	–
CC(=O)NCC(=O)N1CCC(c2cc(-c3ccc(F)cc3)n[nH]2)CC1	1.17%	0.0003151	0.023	0.524%	0.005244	0.005244	0.421%	0.004367	0.004055	0.767%	0.01442	0.0009202	> 20 µM	–
Cc1ccc(-c2nnc(C)c(NCc3ccc4c(c3)OCO4)n2)cc1	11%	0.07782	0.1396	0.509%	0.007094	0.003085	3.71%	0.0315	0.04273	0.798%	0.01595	0	> 20 µM	–
CC(=O)Nc1ccc(CCc2nc3ccc(C(=O)NC4CC4)cc3[nH]2)cc1	1.75%	0.005671	0.0293	0.478%	0.005244	0.004318	0.639%	0.004055	0.008734	0.721%	0.01166	0.002761	> 20 µM	–
Cn1nccc1C(=O)NCc1ccc(-c2nc(-c3ccc(F)cc3)no2)s1	2.14%	0.004411	0.03844	0.308%	0.003085	0.003085	0.405%	0.004055	0.004055	0.752%	0.01135	0.003681	14 µM	–
COc1cc2nc(C(=O)N3CCCCC3)cc(Nc3ccc(F)c(F)c3)c2cc1OC	3.58%	0.01071	0.06081	0.185%	0.0009254	0.002776	0.39%	0.002183	0.005614	0.567%	0.009816	0.001534	6.7 µM	–
COc1nccnc1NC1CCN(C(=O)c2ccncc2)CC1	1.42%	0	0.02836	0.308%	0.003085	0.003085	0.452%	0.004367	0.004679	0.706%	0.01104	0.003067	–	–
CCc1cccc(NC(=O)Cn2ccc3ccc(-c4nnc(C)o4)cc32)c1	–	–	–	–	–	–	1.34%	0.01497	0.01185	0.936%	0.01472	0.003988	–	–
